A mixed list of measured activities; the numbers were collected in NIAID ChemDB.

Shared fields: toxicity to cultured cells; cells: C8166; endpoint: CC50

An empty or dashed field is not shown. Conditions beyond the fields shown may differ between rows. CCn: concentration that lowers growth or viability of the cells by n%.

COc1cc(OC)cc(OC2O[C@H](CO)[C@@H](O)[C@H](O)[C@H]2O)c1 ; read by: MTT ; value: >200 µM
COc1ccc(Cc2nccc3cc(OC)c(OC)cc23)cc1OC ; read by: MTT ; value: 5 µg/mL
CC(C)(C)NC(=O)[C@@H]1C[C@@H]2CCCC[C@@H]2CN1C[C@@H](O)[C@H](Cc1ccccc1)NC(=O)[C@H](CC(N)=O)NC(=O)c1ccc2ccccc2n1 ; value: 90 µM
COc1cc(OC)c2c(c1)C(=O)OC2 ; read by: MTT ; value: >200 µg/mL
Cc1cn([C@H]2C[C@H](N=[N+]=[N-])[C@@H](CO)O2)c(=O)nc1NNc1ccccc1 ; value: 150 µM
O=c1c2cccn2c2ncccc2n1CCNC(=S)Nc1ccc(Br)cn1 ; value: 11 µM
CN1C(=O)C(c2ccccc2)C(=O)N(c2ccccc2)c2cc(C(F)(F)F)ccc21 ; value: >20 µM
NC(=O)c1[nH]c2ccc(Cl)cc2c1S(=O)(=O)c1ccccc1 ; read by: MTT ; value: >20 µM
C[C@@H]1C(=O)[C@@]2(C)CC[C@]34C[C@]56OC(=O)C[C@H]5O[C@@](C)(CO)[C@@H]6CC[C@@]3(O)C(=O)[C@@]3(O[C@@]5(C[C@H](C)C(=O)O5)[C@@H]1[C@H]32)O4 ; read by: MTT ; value: 88 µg/mL
Cc1cn([C@H]2C[C@H](N=[N+]=[N-])[C@@H](COP(=O)(OCc3ccc(C(=O)OC(C)C)cc3)OCc3ccc(C(=O)OC(C)C)cc3)O2)c(=O)[nH]c1=O ; read by: MTT ; value: 1 µM
CCN1c2ncccc2N(C)C(=S)c2oc3cccnc3c21 ; value: >60 µM
CCCCC[C@H](O)/C=C/[C@H]1C=CC(=O)[C@@H]1CCCCCCC(=O)O ; value: 140 µM
CCO[C@@H]1O[C@]23CC(=O)C4[C@@]1(CC[C@]1(C)[C@@H]([C@H](C)CC(C)=O)CC[C@@]41C)C2CCC(=O)C3(C)C ; value: 54.8 µg/mL
COc1cc(/C=C/C(=O)O[C@H]2[C@H](O)[C@@H](OC3OCC(O)(CO)C3O)[C@H](OCCc3ccc(O)cc3)O[C@@H]2CO)ccc1O ; read by: MTT ; value: >200 µg/mL
CCN1c2ncc(CSc3ccccc3)cc2C(=O)N(C)c2ccc(Cl)nc21 ; read by: MTT ; value: >60 µM
O=c1cc(-c2ccccc2)oc2cc(O)cc(O)c12 ; value: 50 µg/mL
COc1cc([C@@H]2c3c(cc(OC)c(O)c3OC)C[C@H](CO)[C@H]2COS(=O)(=O)[O-])cc(OC)c1O.[Na+] ; read by: MTT ; value: >200 µg/mL
COC(=O)[C@H](C)NP(=O)(OC[C@@H]1C=C[C@H](n2cnc3c(N)ncnc32)O1)Oc1ccccc1 ; value: 19 µM
CCN1c2ncccc2N(C)C(=O)c2oc3ccccc3c21 ; value: 80 µM
O[C@H]1[C@H](O)[C@@H](O)CN2CC[C@H](O)[C@H]12 ; read by: MTT ; value: >500 µg/mL
CC(=O)O[C@H]1C[C@H](n2ccc(=O)[nH]c2=O)O[C@@H]1COP(=O)(OCC(Cl)(Cl)Cl)OCC(Cl)(Cl)Cl ; value: >100 µM
COc1ccccc1C(=O)CC1(O)C(=O)Nc2ccc(Br)cc21 ; read by: MTT ; value: >400 µM
Nc1ncnc2c1ncn2[C@H]1CC[C@@H](CO)O1 ; value: >250 µM
COc1ccc(/C=C/C(=O)O)cc1OC ; read by: MTT ; value: 137 µM
O=C(CC1(O)C(=O)Nc2ccc(Br)cc21)c1ccccc1Cl ; read by: MTT ; value: 122 µM
C=C(C)[C@]12C[C@@H](C)[C@@]34OC(/C=C/C=C/CCCCC)(O[C@@H]1[C@@H]3[C@@H]1O[C@]1(CO)[C@@H](O)[C@]1(O)C(=O)C(C)=C[C@H]14)O2 ; read by: MTT ; value: 21.7 µM
O=C(CC1(O)C(=O)Nc2ccc(Cl)cc21)c1ccccc1 ; read by: MTT ; value: >400 µM
NC(=NCCCCCCN=C(N)/N=C(\N)Nc1ccc(Cl)cc1)/N=C(\N)Nc1ccc(Cl)cc1 ; value: >10 µg/mL
CCCCN1C[C@H](O)[C@@H](O)[C@H](O)[C@H]1CO ; read by: MTT ; value: >500 µg/mL
C=C(C)[C@@]12OC3(/C=C/C=C/C=C/CCC)O[C@@H]1[C@@H]1[C@@H]4O[C@]4(CO)[C@@H](O)[C@]4(O)C(=O)C(C)=C[C@H]4[C@@]1(O3)[C@H](C)[C@H]2OC(=O)/C=C/c1ccc(O)c(OC)c1 ; read by: MTT ; value: 19.8 µM
Cc1cccc(C(=O)CC2(O)C(=O)Nc3ccccc32)c1 ; read by: MTT ; value: >400 µM
COc1cc([C@H]2c3cc(O)c(OC)cc3C[C@@H](CO)[C@@H]2COS(=O)(=O)[O-])ccc1O.[Na+] ; read by: MTT ; value: 143 µg/mL
Fc1cccc2c1nc(OCCNC(=S)Nc1ccc(Br)cn1)c1cccn12 ; value: 125 µM
COc1cc(CCOC(=O)CCC(=O)CO)cc(O)c1OC ; read by: MTT ; value: 20.4 µg/mL
C=C(C)[C@@H]1CC[C@]2(CC(=O)O)CC[C@]3(C)C(CCC4[C@@]5(C)CCC(=O)C(C)(C)C5CC[C@]43C)C12 ; read by: MTT ; value: 1.52 µM
Cc1cn([C@H]2C[C@H](N=[N+]=[N-])[C@@H](CO)O2)c(=O)[nH]c1=O ; value: >100 µM
O=c1c(O[C@@H]2O[C@H](CO)[C@@H](O)[C@H](O)[C@H]2O)c(-c2ccc(O)cc2)oc2cc(O)cc(O)c12 ; value: 100 µg/mL
O=C(CC1(O)C(=O)Nc2ccccc21)c1ccc(F)cc1 ; read by: MTT ; value: >400 µM
Cc1cn([C@@H]2O[C@H](CO[Si](C)(C)C(C)(C)C)C3(OS(=O)(=O)C=C3N)[C@H]2O[Si](C)(C)C(C)(C)C)c(=O)n(C)c1=O ; value: >10 µM
COc1cccc(C(=O)CC2(O)C(=O)Nc3ccc(Cl)cc32)c1 ; read by: MTT ; value: >400 µM
COC(=O)C(N)(O)Cc1c[nH]c2ccccc12 ; read by: MTT ; value: >200 µg/mL
CCC(CC)NC(=O)C[C@@H](C(=O)NC[C@@H](O)[C@H](Cc1ccccc1)NC(=O)[C@@H](NC(=O)OCc1ccccc1)C(C)O)C(C)(C)C ; value: >1 µM
COc1cc([C@H](O)[C@H](COC(C)=O)Oc2ccc(C(=O)CCO)cc2OC)ccc1O ; read by: MTT ; value: 215.8 µg/mL
CC(=O)O[C@H]1C[C@H](n2cc(C)c(=O)[nH]c2=O)O[C@@H]1CO ; value: >100 µM
Cc1cn([C@H]2C[C@H](N=[N+]=[N-])[C@@H](COP(=O)(OCc3ccccc3)OCc3ccccc3)O2)c(=O)[nH]c1=O ; read by: MTT ; value: >100 µM
O=C(CC1(O)C(=O)Nc2ccc(Br)cc21)c1cccc(Br)c1 ; read by: MTT ; value: 145 µM
CCC(CC)NC(=O)C[C@@H](C(=O)NC[C@@H](O)[C@H](Cc1ccccc1)NC(=O)[C@H](CC(N)=O)NC(=O)c1ccc2ccccc2n1)C(C)(C)C ; value: >1 µM
Cc1cccc(C)c1OCC(=O)N[C@@H](Cc1ccccc1)[C@H](O)CN1CC[C@@H](Sc2ccncc2)C[C@H]1C(=O)NC(C)(C)C ; value: >1 µM
Cc1cn([C@H]2C[C@H](N=[N+]=[N-])[C@@H](COP(=O)(O)O)O2)c(=O)[nH]c1=O ; read by: MTT ; value: >1000 µM
C[C@H](C/C=C/C(C)(C)O)[C@H]1CC[C@@]2(C)C3C(=O)C=C4C(CCC(=O)C4(C)C)[C@]3(C=O)CC[C@]12C ; value: 49.3 µg/mL
Cc1cn([C@H]2C[C@H](N=[N+]=[N-])[C@@H](COP(=O)(O)OCc3ccc(C(=O)OC(C)(C)C)cc3)O2)c(=O)[nH]c1=O ; read by: MTT ; value: 100 µM
OCCc1ccc(O[C@@H]2O[C@H](CO)[C@@H](O)[C@H](O)[C@H]2O)c(O)c1 ; read by: MTT ; value: 243.8 µg/mL
COC(=O)C1=C[C@H](O)[C@@H](O)[C@H](O)C1 ; read by: MTT ; value: >200 µM
C=C(C)[C@@]12OC3(c4ccccc4)O[C@@H]1[C@@H]1[C@@H]4O[C@]4(CO)[C@@H](O)[C@]4(O)C(=O)C(C)=C[C@H]4[C@@]1(O3)[C@H](C)[C@H]2OC(=O)/C=C/C=C/[C@@H]1O[C@@H]1CCC ; read by: MTT ; value: 26.4 µM
CN(N)c1ccn([C@H]2C[C@H](N=[N+]=[N-])[C@@H](CO)O2)c(=O)n1 ; value: 500 µM
Cc1cc(O)c2c(c1)C(=O)c1cc(O)cc(O[C@@H]3O[C@H](CO)[C@@H](O)[C@H](O)[C@H]3O)c1C2=O ; read by: MTT ; value: >200 µg/mL
Cc1cccc(C)c1OCC(=O)N[C@@H](Cc1ccccc1)[C@H](O)CN(CC(C)C)S(=O)(=O)c1ccc(N)cc1 ; value: >1 µM
CCC(CC)NC(=O)C[C@@H](C(=O)NC[C@@H](O)[C@H](Cc1ccccc1)NC(=O)[C@H](CC(N)=O)NC(=O)c1cnc2ccccc2n1)C(C)(C)C ; value: >1 µM
CC(=O)c1cc(O)c(O)c(O[C@@H]2O[C@H](CO)[C@@H](O)[C@H](O)[C@H]2O)c1 ; read by: MTT ; value: >200 µg/mL
O=C(CO)CCC(=O)OCCc1ccc2c(c1)OCO2 ; read by: MTT ; value: 116.5 µg/mL
Oc1cc(O)c2c(c1)O[C@H](c1ccc(O)c(O)c1)[C@H](O)C2 ; value: >100 µg/mL
C[C@@H](Cn1cnc2c(N)nc(N)nc21)OCP(=O)(O)O ; value: >300 µM
C=C(C)[C@@]12OC3(c4ccccc4)O[C@@H]1[C@@H]1[C@@H]4O[C@]4(CO)[C@@H](O)[C@]4(O)C(=O)C(C)=C[C@H]4[C@@]1(O3)[C@H](C)[C@H]2OC(=O)/C=C/C=C/C=C/C(O)CC ; read by: MTT ; value: 25.8 µM
CCC(CC)NC(=O)C[C@@H](C(=O)NC[C@@H](O)[C@H](Cc1ccccc1)NC(=O)[C@@H](NC(=O)c1cnc2ccccc2n1)C(C)C)C(C)(C)C ; value: >1 µM
Cc1ccccc1NC(=O)OC(CN1CCCc2ccccc21)c1ccc(Cl)cc1 ; read by: MTT / absorbance ; value: 109 µg/mL
CO[C@@H]1O[C@]23CC(=O)C4[C@@]1(CC[C@]1(C)[C@@H]([C@H](C)CC(=O)C=C(C)C)CC[C@@]41C)C2CCC(=O)C3(C)C ; value: >200 µg/mL
C[C@H](Cn1cnc2c(N)ncnc21)OCP(=O)(O)O ; value: >500 µM
CCN1c2cc(C)c(C)cc2N(C)S(=O)(=O)c2cccnc21 ; value: 150 µM
CC1=C[C@H]([C@H](O)[C@H](C)[C@@H]2C[C@@H](O)[C@@]3(O)[C@H]4CC[C@@H]5C(C)(C)O[C@H]6CC(=O)O[C@]65C[C@]4(O)CC[C@@]23C)OC1=O ; value: >200 µg/mL
CCOC(=O)c1ccc(COP(=O)(O)OC[C@H]2O[C@@H](n3cc(C)c(=O)[nH]c3=O)C[C@@H]2N=[N+]=[N-])cc1 ; read by: MTT ; value: 500 µM
C[C@H](CO)[C@H]1CC[C@@]2(C)C3C=C[C@@]45OC(=O)[C@]3(CC[C@]12C)C4CCC(=O)C5(C)C ; value: >200 µg/mL
CCCCCCNC(=O)OCCCCCCNC(=O)OC1CCN(C(=O)Oc2ccc(Oc3ccccc3)cc2)CC1 ; read by: MTT / absorbance ; value: >100 µM
Cc1cn([C@H]2C[C@H](N=[N+]=[N-])[C@@H](CO)O2)c(=O)nc1N(C)N ; value: 400 µM
CC(C)(C)CC(C)(C)c1ccc(OCCOCCOCCOCCOCCOCCOCCOCCOCCOCCOCCO)cc1 ; value: >10 µg/mL
CC(C)=CC(=O)C[C@@H](C)[C@H]1CC[C@@]2(C)C3[C@@H](O)C=C4C(CC[C@H](O)C4(C)C)[C@]3(C=O)CC[C@]12C ; value: 76.3 µg/mL
O=C(Oc1cc(O)c2c(c1)O[C@H](c1ccc(O)c(O)c1)[C@@H](O)C2)c1cc(O)c(O)c(O)c1 ; value: >100 µg/mL
Cc1cccc(C)c1OCC(=O)N[C@@H](Cc1ccccc1)[C@H](O)CN1CC[C@@H](OCc2ccncc2)C[C@H]1C(=O)NC(C)(C)C ; value: >1 µM
CCO[C@H]1C[C@H](n2cc(C)c(=O)[nH]c2=O)O[C@@H]1COP(=O)(OCC(Cl)(Cl)Cl)OCC(Cl)(Cl)Cl ; value: 150 µM
CCC(CC)NC(=O)C[C@@H](C(=O)NC[C@@H](O)[C@H](Cc1ccccc1)NC(=O)[C@@H](NC(=O)c1ccc2ccccc2n1)C(C)C)C(C)(C)C ; value: >1 µM
Nc1ccn([C@H]2CC[C@@H](CO)O2)c(=O)n1 ; read by: MTT ; value: >500 µg/mL
Cc1c(O)cccc1C(=O)N[C@@H](Cc1ccccc1)[C@H](O)CN1CC[C@@H](OCc2ccncc2)C[C@H]1C(=O)NC(C)(C)C ; value: >1 µM

Repeating the final 9 entries:

smiles	read by	value
Cc1cn([C@H]2C[C@H](N=[N+]=[N-])[C@@H](CO)O2)c(=O)nc1N(C)N	-	400 µM
CC(C)(C)CC(C)(C)c1ccc(OCCOCCOCCOCCOCCOCCOCCOCCOCCOCCOCCO)cc1	-	>10 µg/mL
CC(C)=CC(=O)C[C@@H](C)[C@H]1CC[C@@]2(C)C3[C@@H](O)C=C4C(CC[C@H](O)C4(C)C)[C@]3(C=O)CC[C@]12C	-	76.3 µg/mL
O=C(Oc1cc(O)c2c(c1)O[C@H](c1ccc(O)c(O)c1)[C@@H](O)C2)c1cc(O)c(O)c(O)c1	-	>100 µg/mL
Cc1cccc(C)c1OCC(=O)N[C@@H](Cc1ccccc1)[C@H](O)CN1CC[C@@H](OCc2ccncc2)C[C@H]1C(=O)NC(C)(C)C	-	>1 µM
CCO[C@H]1C[C@H](n2cc(C)c(=O)[nH]c2=O)O[C@@H]1COP(=O)(OCC(Cl)(Cl)Cl)OCC(Cl)(Cl)Cl	-	150 µM
CCC(CC)NC(=O)C[C@@H](C(=O)NC[C@@H](O)[C@H](Cc1ccccc1)NC(=O)[C@@H](NC(=O)c1ccc2ccccc2n1)C(C)C)C(C)(C)C	-	>1 µM
Nc1ccn([C@H]2CC[C@@H](CO)O2)c(=O)n1	MTT	>500 µg/mL
Cc1c(O)cccc1C(=O)N[C@@H](Cc1ccccc1)[C@H](O)CN1CC[C@@H](OCc2ccncc2)C[C@H]1C(=O)NC(C)(C)C	-	>1 µM